Anti-infective test results gathered from many reports (values: NIAID ChemDB through PubChem).

All rows: toxicity to cultured cells; cells: MDCK; endpoint: CC50

Neighbouring rows are from separate reports. CCn is the concentration with n% toxicity to the cells. Blank or dashed fields: not listed here. a–b is a range or a potency band.

compound	read by	value
O=C(N[C@H]1CCC23CCC2N(Cc2ccccc2)C3C1)c1cc(Cl)ccc1O	-	100 µg/mL
CC1(C)C[C@H](O)C[C@](C)(CNC(=S)c2cc(Cl)ccc2O)C1	-	5.5 µg/mL
Cc1ccc(O)c(C(=O)N[C@H]2CCC34CCC3N(Cc3ccccc3)C4C2)c1	-	100 µg/mL
Nc1nc(Cl)c(N)c(NCC2(CO)CCC2)n1	-	18–20 µM
Cc1ccc(C)c(C(=S)NC[C@@]2(C)C[C@@H](O)CC(C)(C)C2)c1	-	30 µg/mL
COc1cc(OC)cc([C@H]2c3cc(/C=C/c4cc(O)cc(O)c4)ccc3O[C@@H]2c2ccc(O)cc2)c1	MTT	35.96 µg/mL
Nc1nc(Cl)cc(NCC2(CO)CC(Cc3ccccc3)C2)n1	-	0.36–2.1 µM
CCC(C)N1C2CCC23CC[C@H](NC(=O)c2cc(C)ccc2O)CC13	-	100 µg/mL
COc1ccccc1C(=S)NC[C@@]1(C)C[C@@H](O)CC(C)(C)C1	-	45 µg/mL
CCC(C)N1C2CCC23CC[C@@H](NC(=O)c2cc(Cl)ccc2O)CC13	-	100 µg/mL
CC1(C)C[C@@H](O)C[C@](C)(CNC(=S)c2cc(Cl)ccc2O)C1	-	4 µg/mL
Nc1nccc(NCC2(CO)CC(Cc3ccccc3)C2)n1	-	4.4–12 µM
CC1(C)C[C@@H](O)C[C@](C)(CNC(=S)c2ccccc2O)C1	-	40 µg/mL
Nc1ncc(/C=N/O)c(NCC2(CO)CC(CCc3ccccc3)C2)n1	-	1.1–2.8 µM
O=C(NCCCN1CCC[C@@H]2CCCC[C@@H]21)c1cc(Cl)ccc1O	-	30 µg/mL
Nc1nc(Cl)cc(NCC2(CO)CC(O)C2)n1	-	>120 µM
Cc1cc(C)cc(C(=S)NC[C@@]2(C)C[C@@H](O)CC(C)(C)C2)c1	-	40 µg/mL
COc1cc(/C=C/c2ccc3c(c2)[C@H](c2cc(O)cc(O)c2)[C@@H](c2ccc(O)cc2)O3)cc(OC)c1	MTT	13.34 µg/mL
Nc1nc(Cl)cc(NCC2(CO)CC2)n1	-	>440 µM

Repeating the final 2 entries:

compound	read by	value
COc1cc(/C=C/c2ccc3c(c2)[C@H](c2cc(O)cc(O)c2)[C@@H](c2ccc(O)cc2)O3)cc(OC)c1	MTT	13.34 µg/mL
Nc1nc(Cl)cc(NCC2(CO)CC2)n1	-	>440 µM